A mixed list of measured activities; the numbers were collected in NIAID ChemDB.

Shared fields: growth or infection tests; species: Mycobacterium tuberculosis

a–b is a range or a potency band. ECn is the concentration giving n% inhibition of infection, replication or growth. MIC bound comes from a single tested concentration. Inhibition is in % at the dose shown (toxicity tests: loss of growth or viability). MIC50, MIC90 and the like: level of inhibition, or share of isolates inhibited. An empty or dashed field is not shown. Neighbouring rows are from separate reports.

SMILES	method	cell line	dose	strain or isolate	read-out	result
O=C([C@@H](O)CO)N1CC=C(c2c(F)cc(N3C[C@H](COc4ccon4)OC3=O)cc2F)CC1	broth dilution			H37Rv INH-resistant (ATCC 35822)	MIC	1 µg/mL
COc1ccccc1NC(=O)C1=C(C)NC(C)=C(C(=O)Nc2ccccc2OC)C1c1ccc(SC)cc1				H37Rv	EC50	<2.5 µg/mL
Cc1ccc(N=Nc2c(N)nc(N)nc2N)cc1C	BACTEC			H37Rv	MIC bound	>12.5 µg/mL
Cn1c(NNc2nc(NCc3ccccc3)nc(NCc3ccccc3)n2)nc(-c2ccc(Cl)cc2)c(C#N)c1=O				H37Rv	MIC	>12.5 µg/mL
CCCCCCCCNC(CC(=O)OCC)c1ccc([N+](=O)[O-])cc1				Sensitive strains	MIC	25 µg/mL
C[C@H]1C[C@H](N)CN1c1cc2c(cc1F)c(=O)c(C(=O)O)cn2-c1ccc(F)cc1F				ATCC 35822	MBC	>8 µg/mL
O=C(Oc1c(O)c2ccccc2c2ccccc12)c1ccccc1	resazurin			H37Rv	MIC	0.78 µg/mL
CO[C@H]1/C=C/O[C@@]2(C)Oc3c(C)c(O)c4c(O)c(c5c(c4c3C2=O)NC2(CCN(CC(C)C)CC2)N=5)=NC(=O)/C(C)=C\C=C\[C@H](C)[C@H](O)[C@@H](C)[C@@H](O)[C@@H](C)[C@H](OC(C)=O)[C@@H]1C				MDR-2037 (MDR)	MIC	1.6 µg/mL
CCCCCCCCNC(CC(=O)OCC)c1ccc(F)cc1				Sensitive strains	MIC	25 µg/mL
O=C(/C=C/c1ccc(Br)cc1)Oc1ccc(/C=C2\CCCCC2=O)cc1				H37Rv	EC50	>12.5 µg/mL
COc1ccc(Sc2ncnc3nc[nH]c23)cc1				H37Rv	MIC90	>6.25 µg/mL
Cn1c(NNc2nc(Nc3cccc(Cl)c3)nc(Nc3cccc(Cl)c3)n2)nc(-c2ccccc2)c(C#N)c1=O		VERO		H37Rv	MIC	12.5 µg/mL
Cc1cc(=O)[nH]c2[nH][nH]c(=O)c12	BACTEC			H37Rv	MIC	≥12.5 µg/mL
CO[C@H]1/C=C/O[C@@]2(C)Oc3c(C)c(O)c4c(=O)c(c5oc6cc(N7CCN(C(C)C)CC7)cc(=O)c6nc5c4c3=C2O)NC(=O)/C(C)=C\C=C\[C@H](C)[C@H](O)[C@@H](C)[C@@H](O)[C@@H](C)[C@H](OC(C)=O)[C@@H]1C				2912 (rifampin-sensitive)	MIC	0.012 µg/mL
CC(C)C1=C(O)C2=C(C(=O)C1=O)[C@@]1(C)CCCC(C)(C)[C@@H]1[C@H](O)[C@H]2OC=O	BACTEC			H37Rv	MIC	≥12.5 µg/mL
CC1COc2c(N3CCN(C)CC3)c(F)cc3c(=O)c(C(=O)O)cn1c23	broth dilution			Rifampicin-resistant 19000	MIC	0.25–0.5 µg/mL
O=C(CCc1ccccc1)Oc1ccc(/C=C2\CCCCC2=O)cc1				H37Rv	EC50	>12.5 µg/mL
CCCCCCCCC=CCCCCCCCCNCc1ccc(Cl)cc1				Clinical isolates MDR	MIC	25 µg/mL
O=C1C2C3ON(c4ccccc43)C2C(=O)N1c1ccccc1	BACTEC			H37Rv	MIC	≥12.8 µg/mL
COc1cccc(Nc2nc(NNc3nc(-c4ccc(Cl)cc4)c(C#N)c(=O)n3C)nc(Nc3cccc(OC)c3)n2)c1				H37Rv	EC50	>12.5 µg/mL
COc1ccc(CSc2ncccn2)cc1			6.25 µg/mL	H37Rv	inhibition	0%
CN[C@@H]1[C@H](O[C@H]2[C@H](O[C@H]3[C@H](O)[C@@H](O)[C@H](N=C(N)N)[C@@H](O)[C@@H]3N=C(N)N)O[C@@H](C)[C@]2(O)C=O)O[C@@H](CO)[C@H](O)[C@H]1O				Isolate 5	MIC	16 µg/mL
NC1CCN(c2c(F)cc3c(=O)c(C(=O)O)cn(C4CC4)c3c2Cl)C1				ATCC 35828	MBC	0.125 µg/mL
Cc1cccc(CSc2nc(=O)[nH]c3nc[nH]c23)c1				H37Rv	MIC90	>6.25 µg/mL
C=C1C(=O)O[C@@H]2C[C@@]3(C)CCCC(=C)[C@@H]3C[C@H]12	resazurin			H37Rv	MIC bound	>6.25 µg/mL
Cn1c(NNc2nc(Nc3ccc(Cl)cc3Cl)nc(Nc3ccc(Cl)cc3Cl)n2)nc(-c2ccc(Cl)cc2)c(C#N)c1=O			12.5 µg/mL	H37Rv	inhibition	0%
Cc1n[nH]c(=O)c2cc3oc4ccccc4c3n12	BACTEC		12.5 µg/mL	H37Rv	inhibition	22%
CCCCCCCCC=CCCCCCCCCNCc1ccc(O)c(OC)c1				H37Ra	MIC	>25 µg/mL
C[C@]1(COc2ccc(N3CCC(Oc4ccc(OC(F)(F)F)cc4)CC3)cc2)Cn2cc([N+](=O)[O-])nc2O1				H37Rv (EB-resistant)	MIC	0.012 µg/mL
CCCCCCCCC=CCCCCCCCCNCc1ccc(OC)c(OC)c1				Clinical isolates MDR	MIC	6.25 µg/mL
COc1c2occc2c(N)c2ccc(=O)oc12	BACTEC		12.5 µg/mL	H37Rv	inhibition	25%
COc1ccccc1Sc1nc(Cl)nc2nc[nH]c12			6.25 µg/mL	H37Rv	inhibition	3%
O=S1(=O)c2cccc(c2)NC(=S)/C([n+]2ccccc2)=C(/[O-])c2ccc(cc2)CC2CCCCN21	BACTEC		12.5 µg/mL	H37Rv	inhibition	-18%
CC[C@H]1OC(=O)[C@H](C)[C@@H](O[C@H]2C[C@@](C)(OC)[C@@H](O)[C@H](C)O2)[C@H](C)[C@@H](O[C@@H]2O[C@H](C)C[C@H](N(C)C)[C@H]2O)[C@](C)(OC)C[C@@H](C)C(=O)[C@H](C)[C@@H](O)[C@]1(C)O				MDR	MIC50	8 µg/mL
COc1ccc(/C=N/NC(=O)c2ccc(OCc3nc4ccccc4[nH]3)cc2)cc1	BACTEC			H37Rv	MIC bound	>12.5 µg/mL
CSc1ccc(C2C(C(=O)Nc3ccc([N+](=O)[O-])cc3)=C(C)NC(C)=C2C(=O)Nc2ccc([N+](=O)[O-])cc2)cc1			2.5 µg/mL	H37Rv	inhibition	97%
Cc1ccc(/C=C/C(=O)Oc2ccc(/C=C3\CCC/C(=C\c4ccc(OC(=O)/C=C/c5ccc(C)cc5)cc4)C3=O)cc2)cc1			12.5 µg/mL	H37Rv	inhibition	0%
CCOC(=O)CC(NCc1ccccc1)c1cccc(Cl)c1				H37Ra	MIC	>25 µg/mL
CC[C@H]1OC(=O)[C@H](C)[C@@H](O[C@H]2C[C@@](C)(OC)[C@@H](O)[C@H](C)O2)[C@H](C)[C@@H](O[C@@H]2O[C@H](C)C[C@H](N(C)C)[C@H]2O)[C@](C)(O)C[C@@H](C)C(=O)[C@H](C)[C@@H](O)[C@]1(C)O				ATCC35838	MBC	>8 µg/mL
CO[C@H]1/C=C/O[C@@]2(C)Oc3c(C)c(O)c4c(O)c(c(/C=N/N5CCN(C)CC5)c(O)c4c3C2=O)NC(=O)/C(C)=C\C=C\[C@H](C)[C@H](O)[C@@H](C)[C@@H](O)[C@@H](C)[C@H](OC(C)=O)[C@@H]1C				TF274	MIC	100 µM
CCCCCCCCCCCCNC(CCO)c1cccc([N+](=O)[O-])c1				H37Ra	MIC	<25 µg/mL
CO[C@H]1/C=C/O[C@@]2(C)Oc3c(C)c(O)c4c(=O)c(c5oc6cc(N7CCN(CC(C)C)CC7)cc(=O)c6nc5c4c3=C2O)NC(=O)/C(C)=C\C=C\[C@H](C)[C@H](O)[C@@H](C)[C@@H](O)[C@@H](C)[C@H](OC(C)=O)[C@@H]1C				13 (isoniazid-resistant)	MIC	0.0019 µg/mL
Cn1c(NNc2nc(Nc3cccc(Cl)c3)nc(Nc3cccc(Cl)c3)n2)nc(-c2ccc(Cl)cc2)c(C#N)c1=O				H37Rv	MIC	>12.5 µg/mL
CO[C@H]1/C=C/O[C@@]2(C)Oc3c(C)c(O)c4c(O)c(c(/C=N/N5CCN(C6CCCC6)CC5)c(O)c4c3C2=O)NC(=O)/C(C)=C\C=C\[C@H](C)[C@H](O)[C@@H](C)[C@@H](O)[C@@H](C)[C@H](O)[C@@H]1C				Atencio	MBC	1 µg/mL
CO[C@H]1/C=C/O[C@@]2(C)Oc3c(C)c(O)c4c(O)c(c5c(c4c3C2=O)NC2(CCN(CC(C)C)CC2)N=5)=NC(=O)/C(C)=C\C=C\[C@H](C)[C@H](O)[C@@H](C)[C@@H](O)[C@@H](C)[C@H](OC(C)=O)[C@@H]1C				Strain 68	MIC	0.25 µg/mL
CSc1ccc(C2C(C(=O)Nc3cccc([N+](=O)[O-])c3)=C(C)NC(C)=C2C(=O)Nc2cccc([N+](=O)[O-])c2)cc1			2.5 µg/mL	H37Rv	inhibition	98%
Nc1cc2n[nH]nc2c(=O)[nH]1	BACTEC			H37Rv	MIC bound	>12.5 µg/mL
CCCCCCCCNCc1ccc(Cl)cc1				Sensitive strains	MIC	12.5 µg/mL
CN1N=Nc2ccccc2NC1=O	BACTEC			H37Rv	MIC bound	>12.5 µg/mL
NNC(=O)c1ccncc1				Isolate 4	MIC	8 µg/mL
Cc1occc1C(=S)Nc1ccc(Cl)c(C(=O)OC2CCCCC2)c1	BACTEC		12.5 µg/mL	H37Rv	inhibition	66%
Cn1c(NNc2nc(NCc3ccco3)nc(NCc3ccco3)n2)nc(-c2ccccc2)c(C#N)c1=O			12.5 µg/mL	H37Rv	inhibition	47%
CN1CCCCC(C(O)(c2ccccc2)c2ccccc2)C1=O	BACTEC		12.5 µg/mL	H37Rv	inhibition	0%
CCCCCCCCC=CCCCCCCCCNCc1ccccc1O				Sensitive strains	MIC	1.56 µg/mL
NC[C@H]1O[C@H](O[C@H]2[C@H](O)[C@@H](O[C@H]3O[C@H](CO)[C@@H](O)[C@H](N)[C@H]3O)[C@H](N)C[C@@H]2N)[C@H](O)[C@@H](O)[C@@H]1O				Isolate 9	MIC	32 µg/mL
O=C(Nc1cccc(C(F)(F)F)c1)c1cc(C(O)C2CCCCN2)c2cccc(C(F)(F)F)c2n1	resazurin			H37Rv	MIC bound	>6.25 µg/mL
O=C(/C=C/c1ccc(Cl)c(Cl)c1)Oc1ccc(/C=C2\CCCCC2=O)cc1				H37Rv	EC50	>12.5 µg/mL
O=c1nc(SCc2ccc(F)cc2)c2[nH]cnc2[nH]1				H37Rv	MIC90	>6.25 µg/mL
CC[C@H]1OC(=O)[C@H](C)[C@@H](O[C@H]2C[C@@](C)(OC)[C@@H](O)[C@H](C)O2)[C@H](C)[C@@H](O[C@@H]2O[C@H](C)C[C@H](N(C)C)[C@H]2O)[C@](C)(OC)C[C@@H](C)C(=O)[C@H](C)[C@@H](O)[C@]1(C)O				S-24M (susceptible)	MIC	>8 µg/mL
Cc1ccc(C)n1-c1ccc(S(=O)(=O)c2ccc(NC(=O)CCC(=O)O)cc2)cc1	resazurin		6.25 µg/mL	H37Rv	inhibition	9%
CC1=C(C(=O)Nc2ccccc2Cl)C(c2ccc(Cl)cc2Cl)C(C(=O)Nc2ccccc2Cl)=C(C)N1				H37Rv	EC50	>2.5 µg/mL
O=C1/C(=C/c2ccc(OC(=O)c3ccc(Cl)cc3)cc2)CCC/C1=C\c1ccc(OC(=O)c2ccc(Cl)cc2)cc1			12.5 µg/mL	H37Rv	inhibition	0%
NNC(=O)c1ccncc1	broth dilution			INH resistant (ATCC 35820)	MIC	>128 µg/mL
CCC1C[N+]2=C(c3cc(OC)c(OC)cc3CC2)c2c1cc1n2CCc2cc(OC)c(OC)cc2-1				ETA-R	MIC	6.4 µg/mL
COc1ccc(Sc2ncccn2)cc1OC				H37Rv	MIC90	>6.25 µg/mL
C1CCNCC1.S=C(S)N1CCCCC1	BACTEC		12.5 µg/mL	H37Rv	inhibition	99%
COc1ccc(Sc2nc(Cl)nc3nc[nH]c23)cc1			6.25 µg/mL	H37Rv	inhibition	8%
CCC(C(=O)NNC(=O)c1cc(OC)c(OC)c(OC)c1)c1ccccc1	resazurin		6.25 µg/mL	H37Rv	inhibition	5%
CO[C@H]1/C=C/O[C@@]2(C)Oc3c(C)c(O)c4c(=O)c(c5oc6cc(N7CCN(CC(C)C)CC7)cc(=O)c6nc5c4c3=C2O)NC(=O)/C(C)=C\C=C\[C@H](C)[C@H](O)[C@@H](C)[C@@H](O)[C@@H](C)[C@H](OC(C)=O)[C@@H]1C				2624 (rifampin-sensitive)	MBC	0.003 µg/mL
Cn1c(NNc2nc(Nc3ccc(Cl)cc3Cl)nc(Nc3ccc(Cl)cc3Cl)n2)nc(-c2ccccc2)c(C#N)c1=O				H37Rv	EC50	>12.5 µg/mL
O=C1N(CCN2CCC3(CC2)OCCO3)CCN1c1cc(Cl)cc(Cl)c1.O=P(O)(O)O	BACTEC		12.5 µg/mL	H37Rv	inhibition	-3%
COc1ccc(Sc2ccncc2)cc1OC				H37Ra	MIC	>12.8 µg/mL

6 of the rows above, restated:

| SMILES | method | cell line | dose | strain or isolate | read-out | result |
|---|---|---|---|---|---|---|
| NC1CCN(c2c(F)cc3c(=O)c(C(=O)O)cn(C4CC4)c3c2Cl)C1 |  |  |  | ATCC 35828 | MBC | 0.125 µg/mL |
| CSc1ccc(C2C(C(=O)Nc3ccc([N+](=O)[O-])cc3)=C(C)NC(C)=C2C(=O)Nc2ccc([N+](=O)[O-])cc2)cc1 |  |  | 2.5 µg/mL | H37Rv | inhibition | 97% |
| O=C(CCc1ccccc1)Oc1ccc(/C=C2\CCCCC2=O)cc1 |  |  |  | H37Rv | EC50 | >12.5 µg/mL |
| COc1ccc(Sc2ccncc2)cc1OC |  |  |  | H37Ra | MIC | >12.8 µg/mL |
| CN1CCCCC(C(O)(c2ccccc2)c2ccccc2)C1=O | BACTEC |  | 12.5 µg/mL | H37Rv | inhibition | 0% |
| C[C@]1(COc2ccc(N3CCC(Oc4ccc(OC(F)(F)F)cc4)CC3)cc2)Cn2cc([N+](=O)[O-])nc2O1 |  |  |  | H37Rv (EB-resistant) | MIC | 0.012 µg/mL |